Compound potency records, mixed from different reports. Data source: NIAID ChemDB in PubChem.

All rows: whole-cell or culture tests; species: HIV-1; read-out: inhibition

Conditions beyond the fields shown may differ between rows. Inhibition is in % at the dose shown (toxicity tests: loss of growth or viability). Blank or dashed fields: not listed here.

structure,read by,cells,strain or isolate,conditions,tested at,value
Cc1cn([C@H]2C[C@H](N=[N+]=[N-])[C@@H](COP(=O)(O)OC[C@H]3OC(O)[C@@H](O)[C@@H](O)[C@@H]3O)O2)c(=O)[nH]c1=O,RT activity,U-937,LAV-Bru,14 d,1 µM,0%
CC(C)[C@H](NC(=O)c1ccc2ccccc2n1)C(=O)N[C@@H](Cc1ccccc1)[C@H](O)CN1CC[C@@H](OCc2ccncc2)C[C@H]1C(=O)NC(C)(C)C,p24,C8166,IIIB,-,0.025 µM,90%
COc1cc(O)c2c(=O)oc3cc(O)cc(C)c3c2c1,p24 / ELISA,PBMC,NL4-3,5 d,35 µM,95%
Cc1cn([C@H]2C=C[C@@H](CO)O2)c(=O)[nH]c1=O,RT activity,PBL (resting) + PBL,BZ X4,-,4 µM,36%
CCC(C)C(=O)O[C@H]1C(C)(C)[C@H](C(O)C(=O)OC)[C@]2(C)C(=O)[C@@]1(O)[C@@H](O)C1=C3CC(=O)O[C@@H](c4ccoc4)[C@]3(C)CC[C@@H]12,luciferase / luminescence,SupT1,NL4-3,pseudotyped,20 µM,0%
O=C1N(Cc2ccc(CO)cc2)[C@H](Cc2ccccc2)[C@H](O)[C@@H](O)[C@@H](Cc2ccccc2)N1Cc1ccc(CO)cc1,p24,PBMC,Clinical isolate E,-,0.05 µM,90%
O=C(O)P(=O)(O)O,-,PBL,IIIB,10 d,64 µM,70%
C/C=C(\C)C(=O)O[C@H]1[C@@]2(C)C[C@]3(O)[C@@]1(O)[C@H]1OC4(C)O[C@@]5(C[C@H](O)[C@]6(C)C(=CC(=O)O[C@H]6c6ccoc6)[C@@]15O4)[C@]3(C)[C@H]2CC(=O)OC,luciferase / luminescence,SupT1,NL4-3,pseudotyped,100 µM,23.86%
Cc1cn([C@H]2C[C@H](N=[N+]=[N-])[C@@H](CO)O2)c(=O)[nH]c1=O,RT activity,PBL (activated) + PBL,SF162 R5,-,4 µM,100%
c1cc(CN2CCCNCCNCCCNCC2)ccc1CN1CCCNCCNCCCNCC1,p24,PBMC,SW29 CLADE C R5,-,0.1 µM,0%
COC(=O)[C@@H](C)NC(=O)c1c(C)cc2c(c1O)-c1c(cc3c(c1O)C(=O)c1cc(OC)cc(O)c1C3=O)[C@H](O)[C@H]2O[C@@H]1O[C@H](C)[C@H](N)[C@H](O[C@@H]2OC[C@@H](O)[C@H](O)[C@H]2O)[C@H]1O,antigen,MT-4,IIIB,-,10 µg/mL,<10%
O=C(O)P(=O)(O)O,p24 / antigen,H9,IIIB,4 d,300 µM,100%
COc1cc(O)c2c(c1)C(=O)c1c(cc3c(c1O)-c1c(cc(C)c(C(=O)N[C@H](C)C(=O)O)c1O)[C@H](O)[C@H]3O)C2=O,antigen,MT-4,IIIB,-,10 µg/mL,<10%
Nc1ccn([C@H]2CC[C@@H](CO)O2)c(=O)n1,virus yield,CEM,LAV-1,-,0.01 µM,>100%
COC(=O)[C@@H](C)NC(=O)c1c(C)cc2c(c1O)-c1c(cc3c(c1O)C(=O)c1cc(OC)cc(O)c1C3=O)[C@H](O)[C@H]2O[C@@H]1O[C@H](CO)[C@H](N)[C@H](O)[C@H]1O,antigen,MT-4,IIIB,-,10 µg/mL,30%
Nc1ccn([C@H]2CC[C@@H](CO)O2)c(=O)n1,RT activity,PBL (resting) + PBL,BZ X4,-,0.2 µM,89%
CC(=O)Nc1ccc(/C=C/c2ccc(N=C=S)cc2S(=O)(=O)O)c(S(=O)(=O)O)c1,syncytia,JM,GB8,-,25 µg/mL,37%
C/C(=C(/CCO)SS/C(CCO)=C(\C)N(C=O)Cc1cnc(C)nc1N)N(C=O)Cc1cnc(C)nc1N,p24,U-937/HIV-1(RF) + U-937,RF,-,500 µM,80%
COC(=O)C(O)[C@H]1C(C)(C)[C@H](OC(C)=O)[C@]2(O)C=C3C4=CC(=O)O[C@@H](c5ccoc5)[C@]4(C)CC[C@@H]3[C@@]1(C)C2=O,luciferase / luminescence,SupT1,NL4-3,pseudotyped,100 µM,40.69%
COc1cc(O)c2c(c1)C(=O)c1c(cc3c(c1O)-c1c(cc(C)c(C(=O)N[C@H](C)C(=O)O)c1O)[C@H](O[C@@H]1O[C@H](C)[C@H](O)[C@H](O[C@@H]4OC[C@@H](O)[C@H](O)[C@H]4O)[C@H]1O)[C@H]3O)C2=O,antigen,MT-4,IIIB,-,30 µg/mL,99%
CC(C)Nc1cccnc1N1CCN(C(=O)c2cc3cc(N=CN(C)C)ccc3[nH]2)CC1,MTT,PBMC,Seropositive clinical isolate C,-,1 µM,100%
COc1cc(O)c2c(c1)C(=O)c1c(cc3c(c1O)-c1c(cc(C)c(C(=O)N[C@H](C)C(=O)O)c1O)[C@H](O[C@@H]1O[C@H](C)[C@H](O)[C@H](O[C@@H]4OC[C@@H](OS(=O)(=O)O)[C@H](O)[C@H]4O)[C@H]1O)[C@H]3O)C2=O,antigen,MT-4,IIIB,-,30 µg/mL,47%
CCC(C)C(=O)O[C@H]1C(C)(C)[C@H](CC(=O)OC)[C@]2(C)C(=O)[C@@]1(O)C=C1C3=CC(=O)O[C@@H](c4ccoc4)[C@]3(C)CC[C@@H]12,luciferase / luminescence,SupT1,NL4-3,pseudotyped,20 µM,24.47%
Cc1cn([C@H]2C[C@H](N=[N+]=[N-])[C@@H](CO)O2)c(=O)[nH]c1=O,RT activity,CEM,LAV-Bru,26 d,25 µM,94%
Nc1ccn([C@@H]2C=C[C@@H](CO)[C@H](CO)C2)c(=O)n1,p24 / antigen,PBMC,-,-,10 nM,65%
COC(=O)[C@H](OC(C)=O)[C@H]1C(C)(C)[C@H](OC(=O)C(C)C)[C@]2(O)CC3=C4CC(=O)O[C@@H](c5ccoc5)[C@]4(C)CC[C@@H]3[C@@]1(C)C2=O,luciferase / luminescence,SupT1,NL4-3,pseudotyped,20 µM,17.49%

A second listing of 2 rows from above:

structure | read by | cells | strain or isolate | conditions | tested at | value
COC(=O)[C@H](OC(C)=O)[C@H]1C(C)(C)[C@H](OC(=O)C(C)C)[C@]2(O)CC3=C4CC(=O)O[C@@H](c5ccoc5)[C@]4(C)CC[C@@H]3[C@@]1(C)C2=O | luciferase / luminescence | SupT1 | NL4-3 | pseudotyped | 20 µM | 17.49%
Nc1ccn([C@H]2CC[C@@H](CO)O2)c(=O)n1 | virus yield | CEM | LAV-1 | - | 0.01 µM | >100%